Results of unrelated studies side by side (data: NIAID ChemDB).

All rows: tests in culture; organism: HIV-1; measure: fold resistance

An empty or dashed field is not shown.

SMILES | strain or isolate | read by | mutations | cells | result
Cc1occc1C(=S)Nc1ccc(Cl)c(C(=O)OCC2CC2)c1 | 4xAZT/L100I(RT-D67N K70R T215Y K219Q L100I) | cytopathic effect / XTT | RT-D67N K70R L100I T215Y K219Q | CEM + CEM-SS | 40
O=C(NNCCO)c1[nH]c2ccc(Cl)cc2c1S(=O)(=O)c1ccccc1 | - | cytopathic effect / MTT | RT-Y181C | MT-4 | 120
CC(C)c1c(Sc2ccccc2)n(COCc2ccccc2)c(=O)[nH]c1=O | IIIB | syncytia | Nevirapine resistant (RT Y181C) | CEM | 83.3
Cc1occc1C(=S)Nc1ccc(Cl)c(C(=O)OC(C)C)c1 | NL4-3 | cytopathic effect / XTT | RT-Y181C | CEM + CEM-SS | 40
CCc1c(C)[nH]c(=O)c(SC)c1Oc1cc(C)cc(C)c1 | - | cytopathic effect / MTT | RT-K103N Y181C | MT-4 | 16
CC(C)[C@H](NC(=O)OCc1ccccn1)C(=O)N[C@@H](Cc1ccccc1)[C@@H](O)C[C@H](Cc1ccccc1)NC(=O)OCc1cccnc1 | NL4-3 | p24 | PR-M46I V82T I84V | MT-4 | 3.75
C=Cc1c(Oc2cc(C)cc(C)c2)c(CC)c(C)[nH]c1=O | - | cytopathic effect / MTT | RT-Y188L | MT-4 | 6
CCC(C)[C@@H](C(=O)N[C@@H](Cc1ccccc1)[C@H](O)CN(CC(C)C)S(=O)(=O)c1ccc(/C=N/O)cc1)N1CCN(Cc2cccnc2C)C1=O | A17 (LPV-resistant) | cytopathic effect / MTT | PR-L10F V32I M46I I47V Q68E I84V | MT-4 | 9.5
CCc1c(C)[nH]c(=O)c(C(C)C)c1Oc1cc(C)cc(C)c1 | - | cytopathic effect / MTT | RT-K103N | MT-4 | 2
CCc1c(Sc2ccccc2)n(COCc2ccccc2)c(=O)[nH]c1=O | IIIB | syncytia | RT-Y188H | CEM | 6500
Cc1ccc(S(=O)(=O)c2c(C(N)=O)[nH]c3ccc(Cl)cc23)c(C)c1 | Efavirenz-resistant (RT K103R V179D P225H) | cytopathic effect / MTT | RT-K103R V179D P225H | C8166 | 530
CSCSc1nc(C(C)c2c(F)cccc2F)cc(=O)[nH]1 | IIIB | cytopathic effect / MTT | RT-Y181C | MT-4 | 36.25
Cc1cc(C)c(Oc2nc(Nc3ccc(C#N)cc3)c(=O)n(C)c2C)c(C)c1 | - | cytopathic effect / MTT | RT-Y188L | MT-4 | 40
Cc1c(OCC2CCC2)c2cc(F)ccc2[nH]c1=O | NNRTI-resistant (RT K103N Y181C) | β-galactosidase | RT-K103N Y181C | HeLa + HeLa-MAGI | >3.28
Cc1cc(OCCCS(N)(=O)=O)ccc1NC(=O)COc1ccc(Cl)cc1C(=O)c1cc(F)cc(C(F)(F)F)c1 | Nevirapine-resistant (RT Y181C) | cytopathic effect / propidium iodide | RT-Y181C | MT-4 | ~1
COc1ccc(S(=O)(=O)N(CC(C)C)C[C@@H](O)[C@H](Cc2ccccc2)NC(=O)[C@H](C(C)C)N2CC(=O)N(Cc3ccccc3)C2=O)cc1 | A17 (LPV-resistant) | cytopathic effect / MTT | PR-L10F V32I M46I I47V Q68E I84V | MT-4 | 11.8
CCc1c(C)[nH]c(=O)c(Cl)c1Oc1cc(C)cc(C)c1 | - | cytopathic effect / MTT | RT-Y188L | MT-4 | 16
CSCSc1nc(Cc2c(F)cccc2F)c(C)c(=O)[nH]1 | IIIB | cytopathic effect / MTT | RT-K103N Y181C | MT-4 | >1000
CCOc1ccc(F)c(CCNC(=S)Nc2ncc(C(F)(F)F)s2)c1Cl | IIIB | cytopathic effect / XTT | RT-Y181C | MT-4 | >28.6
CCC(C)[C@@H](C(=O)N[C@@H](Cc1ccccc1)[C@H](O)CN(CC1CCCC1)S(=O)(=O)c1ccc(/C=N/O)cc1)N1CCN(Cc2cccnc2C)C1=O | A17 (LPV-resistant) | cytopathic effect / MTT | PR-L10F V32I M46I I47V Q68E I84V | MT-4 | 1
Cc1cc(C#N)cc(C(=O)c2cc(Cl)ccc2OCC(=O)Nc2ccc(S(N)(=O)=O)cc2C)c1 | HXB2 | β-galactosidase | RT-Y181C | HeLa + HELA CD4+ | ~1
O=C(NCCO)c1[nH]c2ccc(Cl)cc2c1S(=O)(=O)c1ccccc1 | - | cytopathic effect / MTT | RT-K103N Y181C | MT-4 | 4200
CC(C)CN(C[C@@H](O)[C@H](Cc1ccccc1)NC(=O)[C@@H](N1CCN(Cc2cccnc2)C1=O)C(C)(C)C)S(=O)(=O)c1ccc(/C=N/O)cc1 | A17 (LPV-resistant) | cytopathic effect / MTT | PR-L10F V32I M46I I47V Q68E I84V | MT-4 | 1
C=CCO/N=C/c1cc(NC(=S)c2ccoc2C)ccc1Cl | NL4-3 | cytopathic effect / XTT | RT-Y181C | CEM + CEM-SS | 57.1
CCOCn1c(Sc2cc(C)cc(C)c2)c(CC)c(=O)[nH]c1=O | IIIB (TIBO 82150) (RT-L100I) | syncytia | RT-L100I | CEM | 1.5
CCc1c(CC2CCCc3ccccc32)n(COCC=C(C)C)c(=O)[nH]c1=O | N119 RT-Y181C NNRTI-resistant | cytopathic effect / MTT | RT-Y181C | MT-4 | >25
Cc1cccc(S(=O)(=O)c2c(C(=O)NCCO)[nH]c3ccc(Cl)cc23)c1 | - | cytopathic effect / MTT | RT-K103N Y181C | MT-4 | 366
CCc1c(C)[nH]c(=O)c(Sc2ccccc2)c1Oc1cc(C)cc(C)c1 | - | cytopathic effect / MTT | RT-L100I | MT-4 | 13
Cc1cc(C)cc(S(=O)(=O)c2c(C(=O)NCCO)[nH]c3ccc(Cl)cc23)c1 | - | cytopathic effect / MTT | RT-K103N Y181C | MT-4 | 375
O=C(O[C@@H]1[C@H](OC(=O)c2ccccc2)[C@@H](CO)O[C@H]1n1cnc2c(N(C(=O)c3ccccc3)C(=O)c3ccccc3)ncnc21)c1ccccc1 | NL4-3 | β-galactosidase | M184V-M41L-L210W-T215Y | HeLaP4 | 0.58
CCOCn1c(Sc2cc(C)cc(C)c2)c(CC)c(=O)[nH]c1=S | IIIB (TIBO 82150) (RT-L100I) | syncytia | RT-L100I | CEM | 3.33
CCC(C)[C@@H](C(=O)N[C@@H](Cc1ccccc1)[C@H](O)CN(CC(C)C)S(=O)(=O)c1ccc(/C=N/O)cc1)N1CC(=O)N(Cc2ccncc2)C1=O | A17 (LPV-resistant) | cytopathic effect / MTT | PR-L10F V32I M46I I47V Q68E I84V | MT-4 | 0.2
CC(C)=CCN1Cc2cc(Cl)cc3[nH]c(=O)n(c23)C[C@@H]1C | IIIB | cytopathic effect / XTT | RT-L100I | MT-4 | >88
NC(=O)c1[nH]c2ccc(Cl)cc2c1S(=O)(=O)c1ccccc1 | Efavirenz-resistant (RT K103R V179D P225H) | cytopathic effect / MTT | RT-K103R V179D P225H | C8166 | 129
O=C(COc1ccc(Cl)cc1C(=O)c1ccco1)Nc1ccc2cn[nH]c2c1 | HXB2 | β-galactosidase | RT-K103N | HeLa + HELA CD4+ | ~1
CC(C)=CCN1Cc2cc(Cl)cc3[nH]c(=O)n(c23)C[C@@H]1C | IIIB | cytopathic effect / XTT | RT-L100I | MT-4 | >88
CCC(=O)c1ccc(F)c([C@@H]2C[C@@H]2NC(=O)Nc2ccc(C#N)cn2)c1O | LAI | β-galactosidase / luminescence | NNRTI-resistant (RT Y188C) | TZM-bl | 0.3
CCC(C)[C@@H](C(=O)N[C@@H](Cc1ccccc1)[C@H](O)CN(CC(C)C)S(=O)(=O)c1ccc(/C=N/O)cc1)N1CCN(Cc2cccc(C)n2)C1=O | A17 (LPV-resistant) | cytopathic effect / MTT | PR-L10F V32I M46I I47V Q68E I84V | MT-4 | 3.5
Cc1cc(C)c(S(=O)(=O)c2nc(Nc3ccc(C#N)cc3)c(=O)n(C)c2C)c(C)c1 | - | cytopathic effect / MTT | RT-Y188L | MT-4 | 399
COC(=O)[C@H](C)NP(=O)(OC[C@@H]1C=C[C@H](n2cc(C)c(=O)[nH]c2=O)O1)Oc1ccc(Br)cc1Cl | RTMDR | p24 | RT M41L L74V T215Y V106N | PBMC | 234
CCOCn1c(Cc2ccccc2)c(C(C)C)c(=O)[nH]c1=O | N119 RT-Y181C NNRTI-resistant | cytopathic effect / MTT | RT-Y181C | MT-4 | 2200
Cc1cc(C)cc(Sc2c(C(=O)NNCCO)[nH]c3ccc(Cl)cc23)c1 | - | cytopathic effect / MTT | RT-K103N Y181C | MT-4 | 223
Cc1cc(C#N)cc(C(=O)c2ccccc2OCC(=O)Nc2ccc(S(N)(=O)=O)cc2C)c1 | - | β-galactosidase | RT-K103N | HeLa MAGI + HeLa | 2
Cc1ccc(S(=O)(=O)c2c(C(N)=O)[nH]c3ccc(Cl)cc23)cc1 | Efavirenz-resistant (RT K103R V179D P225H) | cytopathic effect / MTT | RT-K103R V179D P225H | C8166 | 9300
CCC(C)[C@@H](C(=O)N[C@@H](Cc1ccccc1)[C@H](O)CN(CC(C)C)S(=O)(=O)c1ccc(/C=N/O)cc1)N1CCN(Cc2cccnc2)C1=O | A17 (LPV-resistant) | cytopathic effect / MTT | PR-L10F V32I M46I I47V Q68E I84V | MT-4 | 2
Nc1nc2c(ncn2[C@H]2CO[C@@H](CO)O2)c(=O)[nH]1 | - | cytopathic effect / XTT | RT-L74V | MT-2 | 2.5
Cc1cc(C#N)cc(C)c1Oc1nc(Nc2ccc(C#N)cc2)c(=O)n(C)c1C | - | cytopathic effect / MTT | RT-Y188L | MT-4 | 1
CC=CCOc1cc(NC(=S)c2ccoc2C)ccc1OC | 4XAZT/Y181C (RT D67N K70R Y181C T215Y K219Q) | cytopathic effect / XTT | RT-D67N K70R Y181C T215Y K219Q | CEM + CEM-SS | 140
Cc1cc(C)cc(Sc2c(C(=O)NCCO)[nH]c3ccc(Cl)cc23)c1 | - | cytopathic effect / MTT | RT-Y181C | MT-4 | 50
CC1(C)Oc2ccc3ccc(=O)oc3c2[C@@H](OC(=O)C23CCC(C)(C(=O)O2)C3(C)C)[C@H]1OC(=O)C12CCC(C)(C(=O)O1)C2(C)C | NL4-3 | p24 | RT-G550K | MT-4 | 0.72
COC(=O)[C@H](C)NP(=O)(OC[C@@H]1C=C[C@H](n2cc(C)c(=O)[nH]c2=O)O1)Oc1ccc(OC)cc1 | RTMDR | p24 | RT M41L L74V T215Y V106N | PBMC | 253
CC1=C(C(=O)Nc2ccc(Cl)c(C(=O)OC(C)C)c2)SCCO1 | CALO(RT-T139I) | cytopathic effect / XTT | RT-T139I | CEM + CEM-SS | 2
Cc1cc(S(N)(=O)=O)ccc1NC(=O)COc1ccc(Cl)cc1C(=O)c1cccc(C#N)c1 | HXB2 | β-galactosidase | RT-V106A Y181C | HeLa + HELA CD4+ | ~10
COC(=O)[C@H](C)NP(=O)(OC[C@@H]1C=C[C@H](n2cc(C)c(=O)[nH]c2=O)O1)Oc1cc(Cl)ccc1Cl | RTMDR | p24 | RT M41L L74V T215Y V106N | PBMC | 22

The last 5 rows once more:

SMILES | strain or isolate | read by | mutations | cells | result
CC1(C)Oc2ccc3ccc(=O)oc3c2[C@@H](OC(=O)C23CCC(C)(C(=O)O2)C3(C)C)[C@H]1OC(=O)C12CCC(C)(C(=O)O1)C2(C)C | NL4-3 | p24 | RT-G550K | MT-4 | 0.72
COC(=O)[C@H](C)NP(=O)(OC[C@@H]1C=C[C@H](n2cc(C)c(=O)[nH]c2=O)O1)Oc1ccc(OC)cc1 | RTMDR | p24 | RT M41L L74V T215Y V106N | PBMC | 253
CC1=C(C(=O)Nc2ccc(Cl)c(C(=O)OC(C)C)c2)SCCO1 | CALO(RT-T139I) | cytopathic effect / XTT | RT-T139I | CEM + CEM-SS | 2
Cc1cc(S(N)(=O)=O)ccc1NC(=O)COc1ccc(Cl)cc1C(=O)c1cccc(C#N)c1 | HXB2 | β-galactosidase | RT-V106A Y181C | HeLa + HELA CD4+ | ~10
COC(=O)[C@H](C)NP(=O)(OC[C@@H]1C=C[C@H](n2cc(C)c(=O)[nH]c2=O)O1)Oc1cc(Cl)ccc1Cl | RTMDR | p24 | RT M41L L74V T215Y V106N | PBMC | 22

Fold resistance: result on the changed form divided by that on wild type. Lines come from different laboratories, so protocols vary.